Reference: PMC6256925, “The Anti-HIV Actions of 7- and 10-Substituted Camptothecins” (Molecules, 2009)

Assays:
Type in all cases: cell-based
HIV-2ROD = experiment: Syncytia assay (CPE inhibition), HIV-2ROD in C8166 cells; conditions: ratio CC50 / EC50
Description: (§1) In the presence of 100 μL of various concentrations of the tested compound, C8166 cells (4 × 10^5cells/mL) were infected with virus (HIV-1IIIB, HIV-2CBL-20 or HIV-2ROD) at a multiplicity of infection (M.O.I.) of 0.06. The final volume per well was 200 μL. Control assays were performed without the testing compounds in HIV-1 IIIB infected and uninfected cultures. AZT was included as positive control. After three days of culture, the cytopathic effect (CPE) was measured by counting the number of syncytia in each well under an inverted microscope. EC50 was then calculated.

HIV-1KM018 = experiment: Inhibition of HIV-1 p24 antigen production in PBMC; conditions: HIV-1KM018 in PBMC; ratio CC50 / EC50
Description: Adequate numbers of PHA activated normal PBMC were incubated with HIV-1KM018 (M.O.I. = 0.03) in presence of varying concentrations of the compound. After 3 h of virus adsorption, the cells were washed twice with PBS and incubated with or without various concentration of compound in culture medium supplemented with 50 U/mL human recombinant IL-2 at 1.2 × 10^6 cells/mL for seven days. Half of the medium was changed with corresponding compound concentrations on the third day. At seven days post-infection, HIV-1 p24 antigen in cell-free culture supernatants was analyzed by ELSIA. The percent inhibition of HIV-1 p24 antigen production in PBMC was calculated.

HIV-2CBL-20 = experiment: Syncytia assay (CPE inhibition), HIV-2CBL-20 in C8166 cells; conditions: ratio CC50 / EC50
Description: as §1

HIV-1IIIB = experiment: Syncytia assay (CPE inhibition), HIV-1IIIB in C8166 cells; conditions: ratio CC50 / EC50
Description: as §1

Question: How did the “TI (therapeutic index)” value (HIV-2ROD) turn out when `CC[C@@]1(O)C(=O)OCc2c1cc1n(c2=O)Cc2cc3ccccc3nc2-1` [Compound 1, Camptothecin] was run?
Answer: The value was 20.6.

Question: And the “TI (therapeutic index)” value (HIV-1KM018)?
Answer: Its value is 10.3.

Question: What about the “TI (therapeutic index)” value (HIV-2CBL-20) of the same compound?
Answer: The value was 34.5.

Question: And the “TI (therapeutic index)” value (HIV-1IIIB)?
Answer: Its value is 24.2.

Question: Which results are given for `CC[C@@]1(O)C(=O)OCc2c1cc1n(c2=O)Cc2cc3cc(O)ccc3nc2-1` [Compound 2, 10-hydroxycamptothecin]?
Answer: TI (therapeutic index) (HIV-2ROD): 5.6; TI (therapeutic index) (HIV-1KM018): 3.5; TI (therapeutic index) (HIV-2CBL-20): 10.7; TI (therapeutic index) (HIV-1IIIB): 4.2

Question: Which “TI (therapeutic index)” value (HIV-2ROD) does the source give for `CC[C@@]1(O)C(=O)OCc2c1cc1n(c2=O)Cc2c-1nc1ccccc1c2CO` [Compound 3, 7-Hydroxymethylcamptothecin] here?
Answer: The value was 66.0.

Question: And the “TI (therapeutic index)” value (HIV-1KM018)?
Answer: The value was 66.7.

Question: What about the “TI (therapeutic index)” value (HIV-2CBL-20) of the same compound?
Answer: The value was 317.0.

Question: And the “TI (therapeutic index)” value (HIV-1IIIB)?
Answer: The value was 198.1.
